Data as given in PubChem BioAssay AID504761 (Drosophila RNAi Screening Center, 2011).

Test: 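Insect host genes that dengue virus relies on to spread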 (primary screen)
Cell system: D.Mel-2 cells from Drosophila
Reagent: long dsRNA against Drosophila genes
Conditions: infection with dengue virus type 2; dose and infection time not stated
Measured: 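Cells stained for dengue envelope protein and imaged; percent of infected cells per well on duplicate plates, ranked by infection, with stained nuclei counted for cell number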
Direction: infection score: higher = more virus-infected cells
Call rule: 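Low infection ranks in the two replicates (chance level up to 0.065) followed by a retest with a 1.5-fold or larger significant decrease, p below 0.05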
Meaning of the calls: active = confirmed: knock-down lowers infection; inactive = not picked or not confirmed
The deposit covers about 22,000 reagents; below is a random part of those that have a named target and a result. Of all reagents, 116 (0.52%) are marked active. 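Calls depend on retest data that are not deposited; infection was ranked per plate without normalising between plates; the unit of the infection score is not given.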 Further read-outs or replicates are left out here. Reagent sequences are not shown. Not stated in the record: the amount of reagent, the time to read-out.

alphaTub84D [DRSC12623] gave infection score, replicate 1 = 7.13; inactive.
Depletion of alphaTub84D [DRSC23498] gave: infection score, replicate 1 = 3.49; inactive.
With knock-down of CG2694 [DRSC18470], the screen gave infection score, replicate 1 = 32.8; inactive.
For Ids [DRSC08222], the values are infection score, replicate 1 = 0.49; inactive.

Already shown: 2 of the entries above.
CG2694 [DRSC18470] — infection score, replicate 1 = 32.8; activity call = inactive
Ids [DRSC08222] — infection score, replicate 1 = 0.49; activity call = inactive

Next reagents follow.
Dbp73D [DRSC11142] showed infection score, replicate 1 = 2.29; inactive.
Against CG30429 [DRSC04040], the values are infection score, replicate 1 = 1.38; inactive.
After knock-down of CG1504 [DRSC20513] the results were infection score, replicate 1 = 4.15; inactive.
CG1504 [DRSC26901] showed infection score, replicate 1 = 5.86; inactive.
Depletion of Adgf-D [DRSC16521] gave: infection score, replicate 1 = 2.66; inactive.
l(2)dtl [DRSC04697] showed infection score, replicate 1 = 23.2; inactive.
With knock-down of l(2)dtl [DRSC26021], the screen gave infection score, replicate 1 = 5.54; inactive.
For retm [DRSC03252] the deposit lists infection score, replicate 1 = 3.6; inactive.
Knock-down of CG5906 [DRSC10557] came out at: infection score, replicate 1 = 2.73; inactive.
Silencing of CG3502 [DRSC04381] gave: infection score, replicate 1 = 24.8; inactive.
